System: patient who had loss of taste and smell from COVID-19
Settings: 80 μg theophylline intranasal once per day, 3 months

With Cn1c(=O)c2[nH]cnc2n(C)c1=O [Theophylline, theophylline] the side effects was “No side effects”.
